Results on 2 substances are retold here after paper PMC9393390 (Frontiers in Pharmacology, 2022).

The target in this assay is T1, SARS-CoV-2-RBD (S-RBD) (Severe acute respiratory syndrome coronavirus 2, UniProt P0DTC2).
T1 construct: purchased Sino Biological
The assay is described as follows: Surface plasmon resonance (SPR) binding to immobilized S-RBD. The settings on record: 25 °C, 1:1 binding model, read-out: S-RBD K D.

Aescin: the Kd amounted to 3.74 µM.

Turning to Teichomycin, the Kd amounted to 47.9 µM.
